Test results as given in PubChem BioAssay AID1448 (The Scripps Research Institute Molecular Screening Center, 2008).
The entries are a selection whose mix differs from that of the whole data set. The source made the active and inactive calls.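 Rule for the calls: active = activation above its plate's cutoff, the mean activation of the plate's test wells plus 3 SD (cut at about 12% in these data); inactive = the rest.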

Chains of the proteins cited; added tags and fusions are not shown.
UniProt Q8TDD5, whole entry: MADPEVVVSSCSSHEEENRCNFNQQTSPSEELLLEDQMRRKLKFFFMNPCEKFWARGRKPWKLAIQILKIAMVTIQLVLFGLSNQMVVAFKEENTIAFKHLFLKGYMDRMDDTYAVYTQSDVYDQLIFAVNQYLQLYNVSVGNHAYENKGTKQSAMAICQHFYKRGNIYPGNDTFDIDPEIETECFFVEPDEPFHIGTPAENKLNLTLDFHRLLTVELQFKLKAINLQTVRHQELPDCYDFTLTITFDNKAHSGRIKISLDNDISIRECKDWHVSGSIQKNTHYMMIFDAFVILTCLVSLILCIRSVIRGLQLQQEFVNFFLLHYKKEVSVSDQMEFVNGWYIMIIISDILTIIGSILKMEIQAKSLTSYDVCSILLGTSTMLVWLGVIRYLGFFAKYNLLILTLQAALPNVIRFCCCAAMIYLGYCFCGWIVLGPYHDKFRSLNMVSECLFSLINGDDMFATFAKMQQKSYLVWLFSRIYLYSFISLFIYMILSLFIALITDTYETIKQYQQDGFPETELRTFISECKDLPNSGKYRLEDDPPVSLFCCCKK

molecular target: Mucolipin-3 (Homo sapiens) (UniProt Q8TDD5); assay: activators of mucolipin-3 cation channel – cell-based, HEK293 TRPML3-YFP, Fluo-8 calcium fluorescence, 3 µM, primary screen (AID 1448); conditions: at 3 µM, stronger effect = higher value, 100% = the carbachol control signal;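 note: 0% = DMSO only wells and 100% = carbachol wells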
Summary of the method: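 Test system: HEK293 cells stably carrying human TRPML3-YFP; Doses: single dose, 3 µM final nominal compound, 0.3% DMSO final; Schedule: dye loading 1 h 37 °C then 30 min ambient, 125 s read; Technique: Fluo-8 calcium fluorescence; Benchmarks: high control carbachol 87 µM, low control DMSO.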

SMILES | activation
O=C(NCC1(N2CCCCC2)CCCCC1)c1cccc([N+](=O)[O-])c1 | inactive: 0.67%
N#CC1(Nc2ccccc2)CCN(CCc2ccccc2)CC1 | inactive: 0.07%
CN1CCN(CCOC(=O)C(O)(c2ccccc2)c2ccccc2)CC1 | inactive: 0.88%
COc1ccc(NC2CCN(C(=O)OC(C)(C)C)CC2)cc1 | inactive: 0.06%
O=C(NCC1(N2CCOCC2)CCCCC1)c1cc(=O)[nH]c2ccccc12 | inactive: 0.15%
CN(C)c1cccc(C(=O)NCC2(N3CCCCC3)CCCCC2)c1 | inactive: 0.98%
COc1ccc(CN(CCCl)CCCl)cc1Cl | inactive: 0.31%
CC(C)c1ccc(NC2CCN(C(=O)OC(C)(C)C)CC2)cc1 | inactive: 2.76%
CN1CCC(Nc2cccc(F)c2)CC1 | inactive: -0.13%
COc1ccc(C(=O)NCC2(N3CCCCC3)CCCCC2)c(OC)c1OC | inactive: 0.68%
CCOC(=O)N1CCC(Nc2ccc(OC)cc2)CC1 | inactive: 0.11%
N#CC1(Nc2ccccc2)CCN(Cc2ccccc2)CC1 | inactive: 1.12%
O=C(OC1CN2CCC1CC2)C1c2ccccc2Oc2ccccc21 (centres undefined) | inactive: 0.43%
O=C(NCC1(N2CCOCC2)CCCCC1)c1cc2ccccc2o1 | inactive: 0.34%
COc1ccc(NC2CCN(CCc3ccccc3)CC2)c(OC)c1 | inactive: 0.17%
CCOc1ccc(C)cc1CN(CCCl)CCCl | inactive: 0.11%
Cc1ccc(OCC(C)C)c(CN(CCCl)CCCl)c1 | inactive: -0.06%
CN(C)c1ccc(C(=O)NCC2(N3CCCCC3)CCCCC2)cc1 | inactive: 1.53%
CCN1CCC(Nc2cccc(F)c2)CC1 | inactive: 0.55%
CC(C)(C)OC(=O)N1CCC(Nc2ccccc2)CC1 | inactive: 1.17%
CCOc1ncccc1C(=O)NCC1(N2CCOCC2)CCCCC1 | inactive: -0.5%
CCCOc1ccc(C)cc1CN(CCCl)CCCl | inactive: 0%
CCC(CO)(C(=O)OC1CN2CCC1CC2)c1ccccc1 (centres undefined) | inactive: 0.89%
COc1cc(OC)cc(C(=O)NCC2(N3CCOCC3)CCCCC2)c1 | inactive: 0.03%
COc1ccc(C(=O)NCC2(N3CCOCC3)CCCCC2)cc1OC | inactive: -0.27%
O=C(OC1CN2CCC1CC2)C1c2ccccc2C=Cc2ccccc21 (centres undefined) | inactive: 0.92%
N/C(=N\O)c1c(N)no[n+]1[O-] | inactive: 0.58%
N#Cc1ccc(C(=O)NCC2(N3CCCCC3)CCCCC2)cc1 | inactive: 0.55%
c1ccc(CN2CCC(Nc3ccccc3)CC2)cc1 | inactive: 1.04%
